From patent publication US6680054B1 (priority 1996, dated 2004)

Target: whole virus influenza neuraminidase, A/NWS/34-tern/Australia/G70C/75(H1N9) (Influenza A virus, UniProt P03472)
Conditions: read-out: inhibition constants (IC50), NWS/G70C, calculated on molecular weight per unit of attached GG167 derivative

GG167-Bovine Serum Albumin-Biotin conjugate
IC50: 7 nM
